Pooled drug test results. Numbers come from NIAID ChemDB, via PubChem.

Common to all: tests in culture; agent: Mycobacterium avium complex

An empty or dashed field is not shown.

smiles,dose,strain or isolate,measure,method,result
CC[C@H]1OC(=O)[C@H](C)[C@@H](O[C@H]2C[C@@](C)(OC)[C@@H](O)[C@H](C)O2)[C@H](C)[C@@H](O[C@@H]2O[C@H](C)C[C@H](N(C)C)[C@H]2O)[C@](C)(OC)C[C@@H](C)C(=O)[C@H](C)[C@@H](O)[C@]1(C)O,,3212,MIC,,2 µg/mL
NC1CCCCN(c2c(F)cc3c(=O)c(C(=O)O)cn(C4CC4)c3c2F)C1=O,,1915112,MIC,,32 µg/mL
CO[C@H]1/C=C/O[C@@]2(C)Oc3c(C)c(O)c4c(O)c(c(/C=N/N5CCN(C)CC5)c(O)c4c3C2=O)NC(=O)/C(C)=C\C=C\[C@H](C)[C@H](O)[C@@H](C)[C@@H](O)[C@@H](C)[C@H](OC(C)=O)[C@@H]1C,,3212,MIC,,1 µg/mL
NC[C@H]1O[C@H](O[C@H]2[C@H](O)[C@@H](O[C@H]3O[C@H](CO)[C@@H](O)[C@H](N)[C@H]3O)[C@H](N)C[C@@H]2N)[C@H](O)[C@@H](O)[C@@H]1O,,Isolate C-20,MIC,,≥400 µg/mL
Nc1ccc(C(=O)O)c(O)c1,2 µg/mL,155 strains,inhibition,agar,4%
CN1CC2CCC1CN2c1c(F)cc2c(=O)c(C(=O)O)cn(C3CC3)c2c1F,,PI12/39,MIC,,2 µg/mL
NC(=O)c1cnccn1,50 µg/mL,155 strains,inhibition,agar,0%
C[C@@H]1CN(c2c(F)c(N)c3c(=O)c(C(=O)O)cn(C4CC4)c3c2F)C[C@H](C)N1,,27,MIC,broth dilution,1 µg/mL
CN1CCN(c2cc3c(cc2F)c(=O)c(C(=O)O)cn3-c2ccc(F)cc2)CC1,,3213,MIC,,16 µg/mL
NCC[C@H](O)C(=O)N[C@@H]1C[C@H](N)[C@@H](O[C@H]2O[C@H](CN)[C@@H](O)[C@H](O)[C@H]2O)[C@H](O)[C@H]1O[C@H]1O[C@H](CO)[C@@H](O)[C@H](N)[C@H]1O,,CH-1/HIV+,MIC,,5 µg/mL
CC1CN(c2c(F)cc3c(=O)c(C(=O)O)cn(C4CC4)c3c2F)CC(C)N1,,1915112,MIC,,2 µg/mL
CO[C@H]1/C=C/O[C@@]2(C)Oc3c(C)c(O)c4c(O)c(c5c(c4c3C2=O)NC2(CCN(CC(C)C)CC2)N=5)=NC(=O)/C(C)=C\C=C\[C@H](C)[C@H](O)[C@@H](C)[C@@H](O)[C@@H](C)[C@H](OC(C)=O)[C@@H]1C,,2212-4,MBC,,32 µg/mL
O=C(O)c1cn(C2CC2)c2c(F)c(N3CCN4CCC3C4)c(F)cc2c1=O,,1915112,MIC,,4 µg/mL
CN[C@@H]1[C@@H](O)[C@@H](O[C@@H]2[C@@H](O)[C@H](O[C@H]3O[C@H](CN)CC[C@H]3N)[C@@H](N)C[C@H]2N)OC[C@]1(C)O,8 µg/mL,31 strains,inhibition,broth dilution,39%
NC[C@@H]1O[C@H](O[C@H]2[C@@H](O)[C@H](O[C@@H]3[C@@H](O)[C@H](N)C[C@H](N)[C@H]3O[C@H]3O[C@H](CO)[C@@H](O)[C@H](O)[C@H]3N)O[C@@H]2CO)[C@H](N)[C@@H](O)[C@@H]1O,,559/HIV+,MIC,,<3.12 µg/mL
O=C(O)c1cn(C2CC2)c2c(F)c(N3CCS(=O)(=O)CC3)c(F)cc2c1=O,,1915112,MIC,,4 µg/mL

The last 2 rows once more:

NC[C@@H]1O[C@H](O[C@H]2[C@@H](O)[C@H](O[C@@H]3[C@@H](O)[C@H](N)C[C@H](N)[C@H]3O[C@H]3O[C@H](CO)[C@@H](O)[C@H](O)[C@H]3N)O[C@@H]2CO)[C@H](N)[C@@H](O)[C@@H]1O ; strain or isolate: 559/HIV+ ; measure: MIC ; result: <3.12 µg/mL
O=C(O)c1cn(C2CC2)c2c(F)c(N3CCS(=O)(=O)CC3)c(F)cc2c1=O ; strain or isolate: 1915112 ; measure: MIC ; result: 4 µg/mL

Rows are shuffled and stem from different studies. Percent inhibition refers to the dose given; in toxicity tests it is the harm to the cells.